{"source": "patent EP0417558A2", "about": "“S-haloalkyl(di)(tri)(thio)phosphoric(phosphonic)acid(amide) esters” (dated 1991)", "key": {"Lucilia cuprina": {"system": "Lucilia cuprina", "experiment": "Impregnated filter paper test (Example C), Lucilia cuprina", "settings": "1000 ppm"}, "[1]": {"system": "Phorbia antiqua-Maden (im Boden)", "experiment": "Limit concentration test / soil insects (Grenzkonzentrations-Test / Bodeninsekten)", "settings": "20 ppm in soil; insects added after 24 h, counted after a further 2 to 7 days"}}}
{"smiles": "CCOP(=S)(NC(C)C)SC(C)(F)F", "note": "(racemic)", "values": [{"measurement": "Wirkung", "setting": "Lucilia cuprina", "result": 100, "unit": "%"}]}
{"smiles": "CCOP(=O)(NC(C)C)SC(C)(F)F", "note": "(racemic)", "values": [{"measurement": "Wirkungsgrad", "setting": "[1]", "result": 100, "unit": "%"}]}
{"smiles": "CCOP(=S)(SC(C)(F)F)N(C)C", "note": "(racemic)", "values": [{"measurement": "Wirkung", "setting": "Lucilia cuprina", "result": 100, "unit": "%"}, {"measurement": "Wirkungsgrad", "setting": "[1]", "result": 100, "unit": "%"}]}
